{"source": "paper PMC6099617", "about": "“Synthesis of Antibacterial Nisin–Peptoid Hybrids Using Click Methodology” (Molecules : A Journal of Synthetic Chemistry and Natural …, 2018)", "test_system": "methicillin-resistant Staphylococcus aureus USA 300", "test": "MIC determination against methicillin-resistant S. aureus USA300 (broth microdilution, CLSI)", "conditions": "MRSA USA300, CAMHB, overnight incubation 35 °C, visual inspection, duplicate"}
{"compound": "C=C1NC(=O)[C@H]([C@@H](C)CC)NC(=O)[C@H](NC(=O)/C(=C/C)NC(=O)[C@@H](N)[C@@H](C)CC)CSC[C@@H](C(=O)N[C@H]2C(=O)N3CCC[C@H]3C(=O)NCC(=O)N[C@H](C(=O)N[C@@H](CCCCN)C(=O)NCCCN=[N+]=[N-])CS[C@H]2C)NC(=O)[C@H](CC(C)C)NC1=O", "values": [{"measurement": "MIC S. aureus (USA300)", "result": 26, "unit": "µM"}]}
